# Literature values as cited in publication PMC9552964.
# Target: HIV-1 capsid (Human immunodeficiency virus 1) (UniProt O93182)
# Test: TIRF microscopy
substance,measurement,value
Cyclophilin A (from UniProt P62937),Kd,10 µM
